Anti-infective test results gathered from many reports (values: NIAID ChemDB through PubChem).

All rows: enzyme or target tests; species: HIV-1; protein: Reverse transcriptase

Two numbers with a dash give a range or band.

structure | changes | measure | read by | strain | value
CCN1c2ncc(CCOc3ccc(CC(=O)NN)c4ccccc34)cc2C(=O)N(C)c2cccnc21 | RT-K103N Y181C | IC50 | nucleotide incorporation / radiometric | - | <0.1 µM
CCN1c2ncc(CCOc3ccc(-c4c(C)ccc[n+]4[O-])cc3C)cc2C(=O)N(C)c2cccnc21 | - | IC50 | nucleotide incorporation / radiometric | IIIB | 0.05–0.1 µM
C=C(C)C#Cc1ccc(NC(=O)CSc2nnnn2-c2ccc(C3CC3)cc2Cl)c(Cl)c1 | - | IC50 | PicoGreen / fluorescence | WT | <1 µM
CCN1c2ncc(CCOc3ccc(NC(=O)CC(C)(C)C(=O)O)c4ccccc34)cc2C(=O)N(C)c2cccnc21 | RT-V106A | IC50 | nucleotide incorporation / radiometric | - | >1 µM
CCN1c2ncc(CCOc3ccc(-c4ccc(C)cc4)cc3C)cc2C(=O)N(C)c2cccnc21 | - | IC50 | nucleotide incorporation / radiometric | IIIB | <0.05 µM
CC(C)(C)c1ccc(-n2nnnc2SCC(=O)Nc2ccc(C(=O)NCCC(=O)O)cc2Cl)c(Cl)c1 | - | IC50 | PicoGreen / fluorescence | WT | <1 µM
COc1cc2c(cc1N)CN(c1nn3c(C4CC4)nnc3c3ccccc13)CC2 | - | IC50 | RT activity / fluorescence | 98US_MSC5016 | 4.33 µM
CCN1c2ncc(CCOc3ccc(-c4ccc(N)c(C(=O)O)c4)cc3C)cc2C(=O)N(C)c2cccnc21 | RT-K103N Y181C | IC50 | nucleotide incorporation / radiometric | IIIB | <0.05 µM
CC(C)(N)C#Cc1ccc(NC(=O)CSc2nnnn2-c2cc(C(F)(F)F)cc(C3CC3)c2Cl)c(Cl)c1F | - | IC50 | PicoGreen / fluorescence | WT | <1 µM
CCN1c2ncc(CCOc3ccc(CC(=O)O)c4ccccc34)cc2C(=O)Nc2c(C)cc(Cl)nc21 | RT-K103N Y181C | IC50 | nucleotide incorporation / radiometric | - | 0.1–1 µM
CC(C)(C#Cc1ccc(NC(=O)CSc2nnnn2-c2ccc(C(C)(C)C)cc2Cl)c(Cl)c1)OCC(=O)N1CCC(C(=O)O)CC1 | RT-K103 Y181C | IC50 | PicoGreen / fluorescence | - | <1 µM
CCN1c2ncc(CCOc3ccc(CCC(=O)O)c4c3CCCC4)cc2C(=O)N(C)c2cccnc21 | RT-K103N Y181C | IC50 | nucleotide incorporation / radiometric | - | 0.1–1 µM
CC(C)(C)c1ccc(-n2nnnc2SCC(=O)Nc2ccc(NC(=O)Cc3cc[n+]([O-])cc3)cc2Cl)c(Cl)c1 | - | IC50 | PicoGreen / fluorescence | WT | <1 µM
CCN1c2ncc(CCOc3ccc(NS(=O)(=O)C(F)(F)F)c4ccccc34)cc2C(=O)N(C)c2ccc(F)nc21 | RT-V106A | IC50 | nucleotide incorporation / radiometric | - | >1 µM
CCN1c2ncc(CCOc3ccc(C(=O)NN)cc3C)cc2C(=O)N(C)c2cccnc21 | RT-K103N Y181C | IC50 | nucleotide incorporation / radiometric | IIIB | <0.05 µM
CC(C)(C#Cc1ccc(NC(=O)CSc2nnnn2-c2ccc(C3CC3)cc2Cl)c(Cl)c1F)OCCO[n+]1cccc([O-])c1 | - | IC50 | PicoGreen / fluorescence | WT | <1 µM
CCN1c2ncc(CCOc3ccc(-c4cc[n+]([O-])cc4)cc3C)cc2C(=O)N(C)c2cccnc21 | - | IC50 | nucleotide incorporation / radiometric | IIIB | <0.05 µM
CN(C)c1ccc(Cl)c(-n2nnnc2SCC(=O)Nc2ccc(C#CC(C)(C)C(=O)O)cc2Cl)c1 | RT-K103 Y181C | IC50 | PicoGreen / fluorescence | - | <1 µM
CCN1c2ncc(CCOc3ccc(-c4ccncc4)cc3)cc2C(=O)N(C)c2cccnc21 | RT-K103N Y181C | IC50 | nucleotide incorporation / radiometric | IIIB | 0.05–0.1 µM
CCN1c2ncc(CCOc3ccc(CCC(=O)O)c4c3CCCC4)cc2C(=O)N(C)c2ccc(Cl)nc21 | RT-Y188L | IC50 | nucleotide incorporation / radiometric | - | 0.1–1 µM
CCN1c2ncc(CCOc3ccc(-n4nc(C(=O)O)cc4C)cc3C)cc2C(=O)N(C)c2cccnc21 | RT-K103N Y181C | IC50 | nucleotide incorporation / radiometric | IIIB | >0.1 µM
Cc1nnc2c3ccccc3c(N3CCC4CCCCC4C3)nn12 | - | IC50 | RT activity / fluorescence | IIIB | 3.5 µM
CCN1c2ncc(CCOc3ccc(C(=O)NC(C)(C)CC(=O)O)cc3C)cc2C(=O)N(C)c2cccnc21 | RT-K103N Y181C | IC50 | nucleotide incorporation / radiometric | IIIB | >0.1 µM
CC(C)C(=O)Nc1ccc(NC(=O)CSc2nnnn2-c2ccc(C(C)(C)C)cc2Cl)c(Cl)c1 | - | IC50 | PicoGreen / fluorescence | WT | <1 µM
Cc1nnc2c3ccccc3c(N3CCc4cc(O)c(O)cc4C3)nn12 | - | IC50 | RT activity / fluorescence | 98US_MSC5016 | 1.82 µM
COC(=O)C1CCN(CCOc2ccc(NC(=O)CSc3nnnn3-c3ccc(C(C)(C)C)cc3Cl)c(Cl)c2)CC1 | - | IC50 | PicoGreen / fluorescence | WT | <1 µM
COc1ccc2c(c1)CCN(c1nn3c(C)nnc3c3ccccc13)C2 | - | IC90 | RT activity / fluorescence | KER2008 | 3.68 µM

A second listing of 3 rows from above:

structure	changes	measure	read by	strain	value
CN(C)c1ccc(Cl)c(-n2nnnc2SCC(=O)Nc2ccc(C#CC(C)(C)C(=O)O)cc2Cl)c1	RT-K103 Y181C	IC50	PicoGreen / fluorescence	-	<1 µM
COc1ccc2c(c1)CCN(c1nn3c(C)nnc3c3ccccc13)C2	-	IC90	RT activity / fluorescence	KER2008	3.68 µM
Cc1nnc2c3ccccc3c(N3CCc4cc(O)c(O)cc4C3)nn12	-	IC50	RT activity / fluorescence	98US_MSC5016	1.82 µM

ICn: concentration for n% inhibition. Lines come from different laboratories, so protocols vary. An empty or dashed field is not shown.